Anti-infective test results gathered from many reports (values: NIAID ChemDB through PubChem).

Common to all: tests on isolated targets; organism: Toxoplasma gondii

Inhibition is in % at the dose shown (toxicity tests: loss of growth or viability). Two numbers with a dash give a range or band. Conditions beyond the fields shown may differ between rows. Blank or dashed fields: not listed here. ICn is the concentration giving n% inhibition.

compound | strain | protein | read-out | dose | result
O=C(O)c1c[nH]c(=O)[nH]c1=O | RH | Uracil phosphoribosyltransferase | IC50 | - | >2000 µM
CC1(C)N=C(N)N=C(N)N1c1cccc(OCCOc2cccc([N+](=O)[O-])c2)c1 | RH | DHFR | IC50 | - | 0.04 µM
COc1cc(CCN2CCc3nc(N)nc(N)c3C2)cc(OC)c1OC | - | DHFR | IC50 | - | 3.2 µM
CCC1S/C(=N/S(=O)(=O)c2ccc(N)cc2)NC1=O | - | DHPS | IC50 | - | 970 µM
CC(Oc1ccc(Oc2cnc3cc(Cl)ccc3n2)cc1)C(=O)O | - | Acetyl-CoA carboxylase | IC50 | - | 10–20 µM
Cc1cc2c(cc1C)-c1c(N)nc(N)nc1CC2 | - | Dihydrofolate reductase | IC50 | - | 0.038 µM
CC1(C)N=C(N)N=C(N)N1c1cccc(OCCCOc2cccc(NC(=O)CBr)c2)c1 | RH | DHFR | IC50 | - | 0.45 µM
Nc1nc2[nH]ccc2c(=O)[nH]1 | RH | Phosphoribosyltransferase | Ki | - | 93 µM
CC1(C)N=C(N)N=C(N)N1c1ccc(C(=O)Nc2ccc(S(=O)(=O)F)cc2)cc1 | RH | DHFR | IC50 | - | >100 µM
Nc1nc(N)c2c(n1)CCc1cc(Cl)ccc1-2 | - | Dihydrofolate reductase | IC50 | - | 1.6 µM
CC(C)OP(=O)(CP(=O)(OC(C)C)OC(C)C)OC(C)C | - | Pyrophosphate-dependent phosphofructokinase | IC50 | - | >2000 µM
Nc1ncnc2[nH]ncc12 | RH | Phosphoribosyltransferase | Ki | - | 81 µM
Cc1nc2nc(N)nc(N)c2nc1CN(C)c1ccc2c(Cl)cc(Cl)cc2c1 | - | DHFR | IC50 | - | >10 µM
CC(O)CN1CNc2c1c(=O)n(C)c(=O)n2C | RH | Phosphoribosyltransferase | IC50 | - | >900 µM
C1CCC([NH2+]C2CCCCC2)CC1.C1CCC([NH2+]C2CCCCC2)CC1.COc1cc([N+](=O)[O-])ccc1N/N=C(\C(=O)O)P(=O)([O-])[O-] | - | Pyrophosphate-dependent phosphofructokinase | IC50 | - | >2000 µM
Cc1ncnc2nc[nH]c12 | RH | Phosphoribosyltransferase | inhibition | 900 µM | <10%
Cc1nc(NS(=O)(=O)c2ccc(N)cc2)ncc1Br | - | DHPS | IC50 | - | 2100 µM
CCc1cnccn1 | RH | Uracil phosphoribosyltransferase | inhibition | 2000 µM | <5%
O=P(O)(O)CP(=O)(O)O | - | Pyrophosphate-dependent phosphofructokinase | IC50 | - | >2000 µM
CCN(CC)c1ccc(-c2nc3c(N)nc(N)nc3nc2N)cc1 | RH | DHFR | IC50 | - | >74 µM
CC(Oc1ccc(Oc2ccc(C(F)(F)F)cn2)cc1)C(=O)O | - | Acetyl-CoA carboxylase | IC50 | - | 400 µM
CC1(C)N=C(N)N=C(N)N1c1ccc(OCC(=O)Nc2cccc(S(=O)(=O)F)c2)cc1 | RH | DHFR | IC50 | - | 0.026 µM
Cn1c(=O)[nH]c(=O)c2[nH]c(=O)[nH]c21 | RH | Phosphoribosyltransferase | IC50 | - | >900 µM
CC(C)OP(=O)(OC(C)C)C(=NNc1ccc([N+](=O)[O-])cc1[N+](=O)[O-])P(=O)(OC(C)C)OC(C)C | - | Pyrophosphate-dependent phosphofructokinase | IC50 | - | 75 µM
CCOC(=O)c1c[nH]c(=O)[nH]c1=O | RH | Uracil phosphoribosyltransferase | IC50 | - | >2000 µM
O=c1[nH]c(=O)c2n[nH]nc2[nH]1 | RH | Phosphoribosyltransferase | IC50 | - | >900 µM
COc1ccc(NCc2cnc3nc(N)nc(N)c3c2C)c2ccccc12 | - | DHFR | IC50 | - | 0.38 µM
O=P([O-])(O)C(Cl)(Cl)P(=O)([O-])c1ccccc1.c1cc[nH+]cc1 | - | Pyrophosphate-dependent phosphofructokinase | IC50 | - | >2000 µM
Nc1nc(N)c2c(n1)CCc1cc(Cl)c(Cl)cc1-2 | - | Dihydrofolate reductase | IC50 | - | 0.07 µM
COc1ccc(OC)c(CN2CCc3nc(N)nc(N)c3C2)c1 | - | DHFR | IC50 | - | 0.3 µM
Cc1c[nH]c(=O)[nH]c1=O | RH | Uracil phosphoribosyltransferase | IC50 | - | >2000 µM
Nc1ccc(S(=O)(=O)Nc2cc(Cl)cc(Cl)c2)cc1 | - | DHPS | Ki | - | 1 µM
COc1ccnc(OC)n1 | RH | Uracil phosphoribosyltransferase | IC50 | - | >2000 µM
Nc1nc(N)c2c(n1)CCc1c(Cl)cc(Cl)cc1-2 | - | Dihydrofolate reductase | IC50 | - | 0.08 µM
O=c1[nH]c(=O)[nH]c(=O)[nH]1 | RH | Uracil phosphoribosyltransferase | inhibition | 2000 µM | <10%
Cc1ccccc1-c1nc2c(N)nc(N)nc2nc1N | RH | DHFR | IC50 | - | 1.54 µM
Cl.O=c1nccc[nH]1 | RH | Uracil phosphoribosyltransferase | IC50 | - | >2000 µM
CCn1cnc2c(N)ncnc21 | RH | Phosphoribosyltransferase | inhibition | 900 µM | <10%
Nc1nc(N)c2cc(CO)cnc2n1 | - | Dihydrofolate reductase | IC50 | - | >104 µM
C1CCC([NH2+]C2CCCCC2)CC1.C1CCC([NH2+]C2CCCCC2)CC1.O=C(O)/C(=N\Nc1ccccc1)P(=O)([O-])[O-] | - | Pyrophosphate-dependent phosphofructokinase | IC50 | - | 440 µM
Nc1nc(N)c2c(n1)Cc1c(Cl)cccc1-2 | - | Dihydrofolate reductase | IC50 | - | 4.7 µM
COc1cccc2c1C(OC)CN2Cc1cnc2nc(N)nc(N)c2c1C | - | Dihydrofolate reductase | IC50 | - | 0.049 µM
CN(Cc1cnc2nc(N)nc(N)c2n1)c1ccc(C(=O)N[C@@H](CCC(=O)O)C(=O)O)c(Cl)c1 | RH | DHFR | IC50 | - | 0.093 µM
CCC/C(=N\OCC)C1C(=O)CC(CC(C)SCC)CC1=O | - | Acetyl-CoA carboxylase | IC50 | - | >400 µM
Cn1cc(Br)c(=O)[nH]c1=O | RH | Uracil phosphoribosyltransferase | IC50 | - | >2000 µM
Nc1nc(N)c2c(n1)CCCc1ccc(Cl)cc1-2 | - | Dihydrofolate reductase | IC50 | - | 0.018 µM

A second listing of 3 rows from above:

compound,strain,protein,read-out,dose,result
CC1(C)N=C(N)N=C(N)N1c1cccc(OCCCOc2cccc(NC(=O)CBr)c2)c1,RH,DHFR,IC50,-,0.45 µM
Cc1nc(NS(=O)(=O)c2ccc(N)cc2)ncc1Br,-,DHPS,IC50,-,2100 µM
Nc1nc(N)c2c(n1)CCc1cc(Cl)c(Cl)cc1-2,-,Dihydrofolate reductase,IC50,-,0.07 µM